Compound potency records, mixed from different reports. Data source: NIAID ChemDB in PubChem.

Shared fields: target-level tests; target: CCR5

ICn is the concentration giving n% inhibition. Percent inhibition refers to the dose given; in toxicity tests it is the harm to the cells. An empty or dashed field is not shown. Fold resistance: result on the changed form divided by that on wild type. Neighbouring rows are from separate reports.

SMILES | changes | method | conditions | measure | tested at | value
CCO/N=C(\c1ccc(Br)cc1)C1CCN(C2(C)CCN(C(=O)c3c(C)cc[n+]([O-])c3C)CC2)CC1 | - | radiometric | 24 h | Ki | - | 0.0026 µM
C[C@H]1CN(C2CCN(C(=O)c3c(F)cccc3I)CC2)CCN1[C@@H](C)c1ccc(I)cc1 | - | binding | - | Ki | - | 1.3 µM
CN(C[C@@H](CCN1CCc2ccccc2C1)c1cccc(Cl)c1)S(=O)(=O)c1ccccc1 | - | radioligand binding / binding | - | IC50 | - | <10 µM
CN(CCC(CCN1CCC2(CC1)CS(=O)c1ccccc12)c1ccccc1)S(=O)(=O)c1ccccc1 | - | radioligand binding / binding | - | IC50 | - | >1 µM
O=C(c1ccccc1Cl)N1C[C@H](CN2CCC(O)(CCCc3ccc(-c4nn[nH]n4)cc3)CC2)[C@@H](c2ccccc2)C1 | CCR5-Y108A | radiometric | - | fold resistance | - | 13.64
CC#CCN1C(=O)[C@H]([C@@H](O)C2CCCCC2)NC(=O)C12CCN(Cc1c(C)nn(-c3ccccc3)c1C)CC2 | - | radiometric | - | inhibition | 10 µM | 25%
CN(C[C@@H](CCN1CCC2(CC1)C(=O)NCC2c1ccccc1)c1cccc(Cl)c1)S(=O)(=O)c1ccccc1 | - | radioligand binding / binding | - | IC50 | - | 0.3 µM
C[C@H]1CN(C2CCN(C(=O)c3c(F)cccc3I)CC2)CCN1[C@@H](C)c1ccc(I)cc1 | - | binding | - | Ki | - | 1.3 µM
CCN(C(=O)OCc1ccccc1)C1CCN(CCC(CN(C)S(=O)(=O)c2ccccc2)(c2ccccc2)C(C)C)CC1 | - | radioligand binding / binding | - | IC50 | - | >0.1 µM
CN(CCCc1ccccc1)CC[C@H](CN(C)S(=O)(=O)c1ccccc1)c1cccc(Cl)c1 | - | radioligand binding / binding | - | IC50 | - | >10 µM
CCN(C(=O)OCc1ccccc1)C1CCN(C(C)CC(CN(C)S(=O)(=O)c2ccccc2)c2ccccc2)CC1 | - | radioligand binding / binding | - | IC50 | - | 0.053 µM
CCO/N=C(\c1ccc(Br)cc1)C1CCN(C2(C)CCN(C(=O)c3c(C)ccnc3C)CC2)CC1 | - | binding | - | Ki | - | 0.0079 µM
CCN(C(=O)OCc1ccccc1)C1CCN(CC[C@@](C)(CN(C)S(=O)(=O)c2ccccc2)c2ccccc2)CC1 | - | radioligand binding / binding | - | IC50 | - | 0.165 µM
C[C@H]1CN(C2CCN(C(=O)c3c(F)cccc3I)CC2)CCN1[C@@H](C)c1ccc(I)cc1 | - | radiometric | - | Ki | - | 1.3 µM
CCN(C(=O)OCc1ccccc1)C1CCN(CC[C@](C)(CN(C)S(=O)(=O)c2ccccc2)c2ccccc2)CC1 | CCR5-Y108A | radiometric | - | fold resistance | - | 252.5
CCN(C(=O)OCc1ccccc1)C1CCN(CCC(C#N)(CN(C)S(=O)(=O)c2ccccc2)c2ccccc2)CC1 | - | radioligand binding / binding | - | IC50 | - | 0.012 µM

A second listing of 2 rows from above:

SMILES,changes,method,conditions,measure,tested at,value
C[C@H]1CN(C2CCN(C(=O)c3c(F)cccc3I)CC2)CCN1[C@@H](C)c1ccc(I)cc1,-,binding,-,Ki,-,1.3 µM
CN(CCC(CCN1CCC2(CC1)CS(=O)c1ccccc12)c1ccccc1)S(=O)(=O)c1ccccc1,-,radioligand binding / binding,-,IC50,-,>1 µM